Reference: patent publication US20220356229A1 (published 2022)
Positions count from the first letter of the chain named. Like-named read-outs stand apart in the source and are kept apart here.

B1: antibody 508 (antibody, V domains shown)
VH: EVQLVQSGAEVKKPGATVKISCKVSGYTFTDYYMHWVQQAPGKGLEWMGLVDPEDGETIYAEKFQGRVTITADTSTDTAYMELSSLRSEDTAVYYCAVENMITFGGVIVKRGAFDIWGQGTMVTVSS
VL: DIQMTQSPSSLSASVGDRVTITCQASQDISNYLNWYQQKPGKAPKLLIYDASNLETGVPSRFSGSGSGTDFTFTISSLQPEDIATYYCQQYDNLPLFTFGPGTKVDIK
B2: antibody 851 (antibody)
heavy: not shown
light: NFMLTQPHSVSESPGKTVIISCTRSIGSIASNYVQWYQQRPGSAPTIVVFEDNERPSGVPDRFSGSIDRSSNSASLTISGLKTEDEADYYCQSYDGSSELVFGGGTKLTVLGQPKAAPSVTLFPPSSEELQANKATLVCLISDFYPGAVTVAWKADSSPVKAGVETTTPSKQSNNKYAASSYLSLTPEQWKSHRSYSCQVTHEGSTVEKTVAPTECS
B3: antibody 278 (antibody, V domains shown)
VH: QVQLVQSGAEVKKPGASVKVSCKASGYTFTSYYMHWVRQAPGQGLEWMGIINPSGGSTSYAQKFQGRVTMTRDTSTSTVYMELSSLRSEDTAVYYCARDHSNADPYYDFWSGYYTRTYYYGMDVWGQGTTVTVSS
VL: not shown
B4: antibody 440 (antibody, V domains shown)
VH: EVQLLESGGGLVQPGGSLRLSCAASGFTFSSYAMSWVRQAPGKGLEWVSAISGSGVNTYHADSVKGRFTISRDNSRNTLYLQMSSLTAEDTAAYYCAKDFEAASGAYYYYGMDVWGQGTTVTVSS
VL: SYELTQPPSVSVSPGQTARITCSGDALPDQYAYWYQQKPGQAPVVVIYKDRERPSGIPERFSGSNSGTTVTLTISGVQAEDEADYYCQSADSSATYVVFGGGTKLTVL
B5: antibody 455 (antibody, V domains shown)
VH: QVQLVQSGAEVKKPGSSVKVSCKASGGTFSSYAISWVRQAPGQGLEWMGRIIPILGIANYAQKFQGRVTITADKSTSTAYMELSSLRSEDTAVYYCARDSIVVPAAIISGYYYYGMDVWGQGTTVTVSS
VL: QSVLTQPPSVSAAPGQKVTISCSGSSSNIGNNYVSWYQQLPGTAPKLLIYDNNKRPSGIPDRFSGSKSGTSATLGITGLQTGDEADYYCGTWDSSLSAGRVFGGGTKLTVL
B6: antibody 458 (antibody, V domains shown)
VH: QVQLVESGGGVVQPGRSLRLSCAASEFTFATYAMHWVRQAPGKGLEWVALISQDGSNKHYADSVKGRFTISRDNSKNTLYLQMNSLRAEGTAIYYCARESLEAAGPPFDYWGQGTLVTVSS
VL: SYELTQPPSVSVSPGQTATIICSGDKLGEKYASWYQQKPGQSPALVIYQDRKRPSGIPERFSGSNSGNTATLTISGTQAMDEADYYCQAWDSSNSVVFGGGTKLTVP
B7: antibody 469 (antibody, V domains shown)
VH: QVQLVESGGGVVQPGRSLRLSCAASGFTFSSYGMHWVRQAPGKGLEWVAVIWYDGSNKYYADSVKGRFTISRDNSKNTLYLQMNSLRAEDTAVYYCARDLLSVGWSFDYWGQGTLVTVSS
VL: not shown
B8: antibody 528 (antibody, V domains shown)
VH: QVQLVQSGAEVKKPGSSVKVSCKASGGTFNSNSISWVRQAPGQGLEWMGRIIPILDITMYARKFQGRVTISADKSTGTAYMDLSSLRSEDTAVYYCATDRDDSSGDYYYGMDVWGQGTTVTVSS
VL: DIQMTQSPSSLSASVGDRVTITCRASLSISNYLNWYQQKPGKAPNLLIYAASTLQSGVPSRFSGSGSGTDFTLTISSLQPEDFATYYCQQTYITRWTFGQGTKVEIK
B9: antibody 502 (antibody, V domains shown)
VH: QVQLVQSGAEVKKPGASVKVSCKASGYTFTSYYMHWVRQAPGQGLEWMGIINPSGGSTSYAQKFQGRVTMTRDTATSTVYMELSSLRSEDTAVYYCARGGGQISMIIVVMDDAFDIWGQGTMVTVSS
VL: EILMTQSPATLSVSPGERATLSCRASQSVSSNLAWYQQKPGQAPRLLIYGASTRATGIPARFSGSGSGTEFTLTISSLQSEDFAVYYCQQYNNWPYTFGQGTKLEIK
B10: antibody 1037 (antibody, V domains shown)
VH: QITLKESGPTLVKPTQTLTLTCTFSGFSLSTSGVGVGWIRQPPGKALEWLALIYWDDDKRYSPSLKSRLTITKDTSKNQVVLTMTNMDPVDTATYYCAHHTITRINDYWGQGTLVTVSS
VL: QSALTQPASVSGSPGQSITISCTATSSDVGAYNYVSWYQQHPGKAPKLMIYDVSKRPSGVSNRFSGSKSGNTASLTISGLQAEDEADYYCSSYTSSSTVFGGGTKLTVLG
B11: antibody 518 (antibody, V domains shown)
VH: QVQLVESGGGVVQPGRSLRLSCAASGFTFSSYAMHWVRQAPGKGLEWVAVISYDGSNKYYADSVKGRFTISRDNSKNTLYLQMNSLRAEDTAVYYCAKPYSGSYWDAFDIWGQGTMVTVSS
VL: not shown
B12: antibody 277 (antibody, V domains shown)
VH: B11 VH with K58T, K98R, W105F, D106N, A107W, I110P, M116L
VL: DIVMTQSPDSLAVSLGERATINCKSSQSVLYSSNNKNYLAWYQQKPGQPPKLLTYWASTRESGVPDRFSGSGSGTDFTLTISSLQAEDVAVYYCQQYYSTPLTFGGGTKVEIK
B13: antibody 532 (antibody, V domains shown)
VH: EVQLVESGGGLVQPGGSLRLSCAASGIIVSSNYMSWVRQAPGKGLEWVSVIYSGGSTYYADSVKGRFTISRDNSKNTLYLQMNSLRAEDTAVYYCAREGLVGATLAFDYWGQGTLVTVSS
VL: not shown
B14: antibody 530 (antibody, V domains shown)
VH: EVQLVESGGGLVQPGGSLRLSCAASGFTFSSYWMSWVRQAPGKGLEWVANIKQDGSEKYYVDSVKGRFTISRDNAKNSLYLQMNSLRAEDTAVYYCAREPQLWSEYYFDYWGQGTLVTVSS
VL: DIQMTQSPSSLSASVGDRVTITCRASQGISSWLAWYQQKPEKAPKSLIYAASSLQSGVPSRFSGSGSGTDFTLTISSLQPEDFATYYCQQYNSYPPTFGQGTRLEIK

Legend:
[1] = molecular target: T1, SARS-CoV-2 Spike (S) protein, wild type, full length (SARS-CoV-2, UniProt P0DTC2 14-1273); test: flow cytometry, CHO cells expressing full-length Spike
[2] = molecular target: T1, SARS-CoV-2 Spike (S) protein, wild …; test: as above; remark: listed apart in the source
[3] = molecular target: T1, SARS-CoV-2 Spike (S) protein, wild …; test: as above; remark: listed apart in the source
[4] = molecular target: T1, SARS-CoV-2 Spike (S) protein, wild …; test: as above; remark: listed apart in the source
SARS-CoV-2 Spike NTD = SARS-CoV-2 Spike NTD (SARS-CoV-2, UniProt P0DTC2 16-328); test: multiplexed bead assay, flow cytometry, […]
[5] = molecular target: T2, SARS-CoV-2 Spike (S) protein, wild type, full length (SARS-CoV-2, UniProt P0DTC2 14-1208); test: bead assay, flow cytometry
[6] = molecular target: T2, SARS-CoV-2 Spike (S) protein, wild …; test: bead assay, flow cytometry; remark: listed apart in the source
[7] = molecular target: T2, SARS-CoV-2 Spike (S) protein, wild …; test: bead assay, flow cytometry; remark: listed apart in the source
[8] = molecular target: T2, SARS-CoV-2 Spike (S) protein, wild …; test: bead assay, flow cytometry; remark: listed apart in the source
[9] = molecular target: T2, SARS-CoV-2 Spike (S) protein, wild …; test: bead assay, flow cytometry; remark: listed apart in the source
[10] = molecular target: T2, SARS-CoV-2 Spike (S) protein, wild …; test: bead assay, flow cytometry; remark: listed apart in the source
SARS-CoV Spike protein [11] = molecular target: T3, SARS-CoV Spike protein (SARS-CoV, UniProt P59594 14-1190); test: multiplexed bead assay, flow cytometry
SARS-CoV Spike protein [12] = molecular target: T3, SARS-CoV Spike protein; test: multiplexed bead assay, flow cytometry; remark: listed apart in the source
[13] = molecular target: T1, SARS-CoV-2 Spike (S) protein, wild …; test: flow cytometry, CHO cells expressing full-length Spike; remark: listed apart in the source

Binder | median fluorescence, fold over isotype control [1] | median fluorescence, fold over isotype control [2] | median fluorescence, fold over isotype control [3] | median fluorescence, fold over isotype control [4] | median fluorescence, fold over isotype control [13] | further results
B1 | 2.94 fold over isotype | 1.48 fold over isotype | 2.5 fold over isotype | 1.11 fold over isotype |  | 
B2 |  |  |  |  |  | bead assay binding signal (SARS-CoV-2 Spike NTD): 174
B3 |  |  |  |  |  | bead binding signal (fold over isotype) [5]: 120 fold over isotype; bead binding signal (fold over isotype) [6]: 556 fold over isotype; bead binding signal (fold over isotype) [7]: 321 fold over isotype; bead binding signal (fold over isotype) [8]: 3.29 fold over isotype; bead binding signal (fold over isotype) [9]: 14.8 fold over isotype; bead binding signal (fold over isotype) [10]: 185 fold over isotype
B4 |  |  |  |  |  | bead binding signal (fold over isotype control) (SARS-CoV Spike protein [11]): 1.37; bead binding signal (fold over isotype control) (SARS-CoV Spike protein [12]): 1.01
B5 |  |  |  |  |  | bead binding signal (fold over isotype control) (SARS-CoV Spike protein [11]): 61.4; bead binding signal (fold over isotype control) (SARS-CoV Spike protein [12]): 10.2
B6 |  |  |  |  |  | bead binding signal (fold over isotype control) (SARS-CoV Spike protein [11]): 1.03; bead binding signal (fold over isotype control) (SARS-CoV Spike protein [12]): 1.01
B7 |  |  |  |  |  | bead binding signal (fold over isotype control) (SARS-CoV Spike protein [11]): 1.43; bead binding signal (fold over isotype control) (SARS-CoV Spike protein [12]): 1
B8 | 11.9 fold over isotype | 2.99 fold over isotype | 8.72 fold over isotype | 5.31 fold over isotype | 23.2 fold over isotype | 
B9 | 18.5 fold over isotype | 7.68 fold over isotype | 19 fold over isotype | 14.7 fold over isotype | 28.6 fold over isotype | 
B10 |  |  |  |  |  | bead assay binding signal (SARS-CoV-2 Spike NTD): 1.2
B11 | 8.65 fold over isotype | 8.31 fold over isotype | 10.4 fold over isotype | 7.25 fold over isotype | 16.5 fold over isotype | 
B12 |  |  |  |  |  | bead binding signal (fold over isotype) [5]: 548 fold over isotype; bead binding signal (fold over isotype) [6]: 868 fold over isotype; bead binding signal (fold over isotype) [7]: 507 fold over isotype; bead binding signal (fold over isotype) [8]: 121 fold over isotype; bead binding signal (fold over isotype) [9]: 321 fold over isotype; bead binding signal (fold over isotype) [10]: 483 fold over isotype
B13 | 15.2 fold over isotype | 14.5 fold over isotype | 27.7 fold over isotype | 20.1 fold over isotype | 40.2 fold over isotype | 
B14 | 5.76 fold over isotype | 2.02 fold over isotype | 3.97 fold over isotype | 2.24 fold over isotype | 11.8 fold over isotype | 
